Human monoclonal antibodies against the spike receptor-binding domain (heavy:light variable regions). IC50 against pseudoviruses bearing the spike of naturally observed variants; lower = stronger; >10 µg/ml means not reached at the top dose. No active / inactive call. The stated detection limit is 0.0005 µg/ml; values near or below 0.001 µg/ml lie at the floor of the assay.
What was measured:
Assay in all cases: pseudovirus neutralization IC50; higher = weaker neutralization
[1] = target: SARS-CoV-2 Omicron BA.1 spike pseudovirus
Method: (§1)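 Single-round VSV luciferase pseudovirus mixed with antibody dilutions for 1 h and put on Huh-7 cells for about a day; IC50 from the dose curve.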

[2] = target: SARS-CoV-2 Omicron BA.2 spike pseudovirus
Method: as §1

[3] = target: SARS-CoV-2 Omicron BA.2.75 spike pseudovirus
Method: as §1

[4] = target: SARS-CoV-2 Omicron BA.5 spike pseudovirus
Method: as §1

[5] = target: SARS-CoV-2 Omicron BQ.1.1 spike pseudovirus
Method: as §1

[6] = target: SARS-CoV-2 Omicron XBB spike pseudovirus
Method: as §1

[7] = target: SARS-CoV-2 early D614G spike pseudovirus
Method: as §1

Row | Binder | pseudovirus neutralization IC50 [1] [µg/mL] | pseudovirus neutralization IC50 [2] [µg/mL] | pseudovirus neutralization IC50 [3] [µg/mL] | pseudovirus neutralization IC50 [4] [µg/mL] | pseudovirus neutralization IC50 [5] [µg/mL] | pseudovirus neutralization IC50 [6] [µg/mL] | pseudovirus neutralization IC50 [7] [µg/mL]
1 | BD56-123 (protein) chain 1: EVQLVESGGGLGQPGGSLRLSCAASGFSFSRYWMHWVRQAPGKGLVCVSSINRDGSSTGYADSVKGRFTISRDNAKNTLYLQMNSLRAEDTAVYYCARDPRHPPNWNYDPPLDYYYGMDVWGQGATVTVSS chain 2: SYVLTQPPSVSVAPGQTARITCGGDNIGSKSVHWYQQRPGQAPTLVIYDDSHRPSGIPERFSGSNSGNMATLTISRVEAGDEADYYCQVWESSSDHPVFGGGTKLTVL | > 10 | > 10 | > 10 | > 10 | > 10 | > 10 | > 10
2 | BD56-124 (protein) chain 1: QVQLVQSGAEVRKPEASVKVSCKASGYTFTGYFIHWVRQAPGQGLEWLGWINPNSGGTSSAQKFQGRVTMTRDTSVTTAYMELSRLRSDDTAIYYCAREKNTGYIDFDPWGAFDVWGRGTMVTV chain 2: QSALTQPASVSGSPGQSITISCTGTSSDVATYDLVSWYQQHPGKVPKLLIYEVTKRPSGVSDRFSGSKSGNTASLTISGLQAEDEADYYCCSYAGSGRVFGGGTKLTVL | 3.37 | 3.22 | 2.09 | 3.11 | 2.68 | 2.65 | 0.339
3 | BD56-125 (protein) chain 1: QLQLQESGPGLVKPSETLSLTCTVSGDSVSRTYSYWGWIRQPPGKGLEWIGSISYSGNTYYNPSLKSRFTISLDTSKNHFSLKMRYVTAADTAVYYCARPEWNTVTTGSFDLWGRGTLVAVSS chain 2: QSVLTQPPSASGTPGQRVTISCSGTDSNIGSNFVSWYQQVPGAAPKLLIYSTSQRPSGVPDRFSGSKSGTSASLAISGLRSEDEADYYCATWDDSLSGYVVFGGGTKLTVL | > 10 | > 10 | > 10 | > 10 | > 10 | > 10 | > 10
4 | BD56-127 (protein) chain 1: QVRLQQSGPGLVKPSETLSLTCTVYGGPVSSGGYSWSWIRQPPNKGLESIGSIYYSGGTNYNPSLKSRVTISVDMSKNQFSLKLSSVTAADTAVYYCAREVVPPAGNNWFDPWGQGTLVTVSS chain 2: SYVLTQAPSVSVAPGKTAKITCGGNEIGSKSVHWYQRKPGQAPVLVVYDDSDRPSGIPERFSGSNSGNTATLTISRVEAGDEADYYCQLWDGSSDPHVVFGGGTKVTVL | 5.53 | 4.98 | 3.17 | 4.25 | 8 | 7.64 | 6.29
5 | BD56-128 (protein) chain 1: QVQLVESGGGLVKPGGSLKLSCAASGFTFSDHDMSWIRQAPGKGLEWISYINTDGSGIYYTDSVKGRFTISRDNAKNSLHLHMNSLRAEDTAVYYCARDPAFCTGGSCYSRDYFDYWGQGTLVTVSS chain 2: SYVLTQPSSVSVAPGKTARITCGGDDIGSKSVHWYQQRPGQAPVLVIHSDNDRPSGIPERYTGSNSGNTATLIISRVEAGDEADYYCQLWDGSVGHRVFGGGTKLTVL | 5.25 | 6.23 | 7.01 | 6.83 | > 10 | 6.6 | 6.28
6 | BD56-129 (protein) chain 1: QVHLMESGGDLVKPGGSLRLSCAASGFTFSDYYMSWIRQAPGKGLEWVSYISSSGSSIYFADSVKGRFAISRDNAKNSLYLQLNSLRAEDTAVYYCARDRSANYYGDDAFDIWGHGTMVTVSS chain 2: EIVLTQSPGTLSLSPGERATVSCRASHIISTSNLAWYQQKPGQAPRLLIYDASSRATGIPDRFSGSGSGTDFTLTISRLEPEDFAVYYCQQYGGSPRTFGQGTKVEIK | 0.6 | 0.473 | 0.525 | > 10 | > 10 | 5.15 | 0.609
7 | BD56-134 (protein) chain 1: QVQLVESGGGVVQPGKSLRLSCAASGFNFDNFAMHWVRQAPGKGLEWVAVISFDASNKYVADSVKGRFTISRDNSKNTLDLQMISLRPEDTAVYYCARDRSMGDVSALTSGCPEYWGQGTLVTVSS chain 2: DIQMTQSPSSLSASVGDRVTITCQASQDISSYLNWYQQKPGKAPRLLIYDASNLKTGVPSRFSGSGSGTDFTFTISSLQPEDIATYYCQQYDSLPPLTFGGGTKVEIK | > 10 | > 10 | > 10 | > 10 | > 10 | > 10 | > 10
8 | BD56-139 (protein) chain 1: QVQLVQSGAEVKKPGASVKVSCKTSGYVFTTHDLSWVRQAPGQGLEWMGWISAKNGNTNYAQKLQGRVTMTTDTSTSTTYMELRGLTSDDTAVYYCARARRESSGYEDDYWFDPWGQGTLVTVSS chain 2: SSELTQPPSVSVSPGQTARITCSGDTLPNQYVYWYQQKPGQAPVLVIYKDSERPSGIPERFSGSTSGTTVTLAISGVQAEDEADYYCQTADSRGTVFGGGTKLTVL | > 10 | > 10 | > 10 | > 10 | > 10 | > 10 | 5.23
9 | BD56-140 (protein) chain 1: QAQLVQSGAEVGKPGASVKVSCKASGFTFTGYFIHWVRQAPGQGLEWVGWINPDSGGASYAQKFHGRVTMTRDTSISTAYMELSRLRSDDTAMYFCAREKNVGYFDFDPWGAFDLWDRGTMVTVSS chain 2: QSALTQPASVSGSPGQSITISCTGTSSDVGTYDFVSWYQQHPGKGPKLMIYEVTKRPSGVSDRFSGSKSGNTASLTISGLQAEDEADYYCCSYAGSSRVFGGGTKLTVL | 9.71 | 1.72 | 1.85 | 1.81 | 1.51 | 1.5 | 2.17
10 | BD56-145 (protein) chain 1: QVQLQESGPGLVKPSETLSLTCTVSGGSVSSGSHYWSWIRQPPGKGLEWVGFIYYSGTTNYNPSLKNRVTISLDTSKDQFSLKLNSVTAADTAVYYCARGTRGDYNTLTAFYFWYFDLWGRGTLVTVSS chain 2: DIQMTQSPSSLSASVGDRVTITCRASQTISSHLNWYQQTPGKAPKLIIYAASTLQSGVPSTFSGSGSGTHFTLTISSLQPEDFATYYCQQSYSTPLTFGGGTKVEI | > 10 | > 10 | > 10 | > 10 | > 10 | > 10 | 6.05
11 | BD56-147 (protein) chain 1: QVQLVQSGAEVKKPGASVKVSCKASGYTFTGHFMFWVRQAPGQGLEWMGRINPNSGGTNYAQKFQGRVTMTRDTSISTAYMELSGLRSDDTAVYYCVREPYYDILTGSEKDNWGQGTLVTVSS chain 2: QSVLTQPPSASGTPGQRVTISCSGSSSNIGSSYVYWYQQLPGTAPKLLISSNNQRPSGVPDRFSGSKSGTSASLAISGLRSEDEADYYCAAWDDSLSGFYVFGTGTKVTVL | 0.001 | 0.00058 | 0.000625 | 1.16 | 1.27 | > 10 | 0.00346
12 | BD56-151 (protein) chain 1: QVQLVQSGAEVKKPGASVKVSCKASGYTFTSYYIHWVRQAPGQGLEWMGLINPTEGSTSYAQKVQGRVTLTRDTSTSTVYMELSSLRSEDTAVYYCARSLIAPVEDWFDPWGQGTLVTVS chain 2: SYVLTQPPSVSVAPGKTARITCGGNNIGSKSVHWYQQRPGQAPVLVIYYDNDRPSGIPERFSGSNSGNTATLTISRVEAGDEADYYCQVWDGSGVHYVFGTGTKVTVL | > 10 | > 10 | > 10 | > 10 | > 10 | > 10 | > 10
